# PubChem BioAssay AID504761, Drosophila RNAi Screening Center | 2011
# Purpose: 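Genome-wide fly cell screen for genes dengue virus requires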 (primary screen)
# System: D.Mel-2 cells from Drosophila
# Reagents: long dsRNA against Drosophila genes
# Treatment: infection with dengue virus type 2; dose and infection time not stated
# Measured: 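Per well on two replicate plates, imaging gave the percent of cells positive for viral envelope protein, ranked by infection, and a nuclear count of cells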
# Reading the numbers: infection score: higher = more virus-infected cells
# Call rule: 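Very low infection ranking in both replicate wells (chance probability at most 0.065), then a retest showing infection dropped 1.5-fold or more at p below 0.05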
# Calls: active = confirmed: knock-down lowers infection; inactive = not picked or not confirmed
# The deposit covers about 22,000 reagents; this is an unselected part of those with a known target gene and a result. Of all reagents, 116 (0.52%) are marked active. 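Calls depend on retest data that are not deposited; infection was ranked per plate without normalising between plates; the unit of the infection score is not given.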 Reagents against one gene are numbered here. A plus sign joins genes that one reagent is predicted to hit. Not all columns of the deposit are shown. Reagent sequences are not shown. The record does not give: the amount of reagent, the time to read-out.
gene,reagent no.,"infection score, replicate 1",Outcome
laf (GeneID 40606),1,6.61,inactive
CG11413 + CG4622,1,19.9,inactive
CG11413 + CG4622,2,9.31,inactive
betaTry (GeneID 47901),1,1.81,inactive
betaTry (GeneID 47901),2,5.17,inactive
betaTry (GeneID 47901),3,1.62,inactive
CG12206 (GeneID 31316),1,18,inactive
Atx2 (GeneID 41883),1,3.26,inactive
chico (GeneID 64880),1,20.6,inactive
CG11168 (GeneID 42981),1,2.92,inactive
CG9953 (GeneID 38763),1,2.23,inactive
CG14115 (GeneID 39487),1,1.84,inactive
lmgA + lmgB,1,17.1,inactive
lmgA + lmgB,2,8.03,inactive
CG8646 (GeneID 36394),1,22.6,inactive

Continued, starting with the last 5 of the part before.
gene,reagent no.,"infection score, replicate 1",Outcome
CG9953 (GeneID 38763),1,2.23,inactive
CG14115 (GeneID 39487),1,1.84,inactive
lmgA + lmgB,1,17.1,inactive
lmgA + lmgB,2,8.03,inactive
CG8646 (GeneID 36394),1,22.6,inactive
PCNA (GeneID 37290),1,38.4,inactive
CG32733 (retired record) (GeneID 318179),1,0.89,inactive
CG32733 (retired record) (GeneID 318179),2,12,inactive
CG7457 (GeneID 38865),1,3.3,inactive
CG7457 (GeneID 38865),2,36.7,inactive
CG17816 (GeneID 40928),1,0.88,inactive
CG17816 (GeneID 40928),2,3.33,inactive
fau (GeneID 41291),1,0.68,inactive
fau (GeneID 41291),2,2.09,inactive
fau (GeneID 41291),3,30.7,inactive
fau (GeneID 41291),4,2.17,inactive
fau (GeneID 41291),5,1.53,inactive
fau (GeneID 41291),6,1.78,inactive
fau (GeneID 41291),7,9.8,inactive
alka (GeneID 36145),1,7.43,inactive
Tango9 (GeneID 41450),1,24.8,inactive
Spindly (GeneID 33578),1,4.33,inactive
CG4691 (GeneID 34856),1,24.1,inactive
CG4691 (GeneID 34856),2,17.1,inactive
Tdrd3 (GeneID 39612),1,0.66,inactive
Lrt (GeneID 37342),1,2.84,inactive
Lrt (GeneID 37342),2,3.43,inactive
fy (GeneID 34166),1,5.41,inactive
fy (GeneID 34166),2,5.45,inactive
